PubChem BioAssay AID624099, ICCB-Longwood, 2012
In all, the deposit lists about 21,000 reagents; this is a part drawn at random. Of all reagents, 497 (2.4%) are marked active. 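Higher z means weaker E2 silencing; only reporter increases were scored, and knock-downs that hurt cell survival may mask genuine repressor factors.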 The numbers tell different reagents against one gene apart.

Purpose: 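Knock-downs relieving repression by E2 of an HPV18 LCR luciferase reporter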 (primary screen)
System: human C33A cervical carcinoma cells (HPV-negative) stably expressing BPV1 E2 and an HPV18 LCR luciferase reporter
Knock-down reagent: siRNA pool against human genes, 40 nM
Timing: 72 h
Measured: 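HPV18 LCR reporter light per well, converted to plate-wise z-scores that exclude control wells, and averaged over triplicate plates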
Scale: mean z-score and z-score: higher = stronger reporter signal, weaker E2 silencing
Call rule: 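Mean z ≥ 2 together with z ≥ 2 in two or more of the three replicates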

no.	gene	reagent no.	mean z-score	z-score, replicate A	z-score, replicate B	z-score, replicate C	Call
1	L1TD1 (GeneID 54596)	1	-1.83	-1.77	-1.96	-1.78	inactive
2	ZKSCAN3 (GeneID 80317)	1	-0.59	-0.75	-0.62	-0.41	inactive
3	SEPTIN9 (GeneID 10801)	1	0.17	0.41	-0.27	0.38	inactive
4	LOC401353 (retired record) (GeneID 401353)	1	-0.23	-0.38	-0.68	0.36	inactive
5	LOC401353 (retired record) (GeneID 401353)	2	0.17	0.21	0.13	0.16	inactive
6	SCGB1A1 (GeneID 7356)	1	-0.93	-0.83	-0.95	-1.03	inactive
7	FKBP9 (GeneID 11328)	1	-1.2	-1.58	-0.88	-1.15	inactive
8	ACTN2 (GeneID 88)	1	-0.46	-0.79	-0.24	-0.36	inactive
9	COPZ2 (GeneID 51226)	1	0.69	1.29	0.65	0.12	inactive
10	GABRD (GeneID 2563)	1	0.51	0.39	0.69	0.44	inactive
11	LRRC37A2 (GeneID 474170)	1	-0.08	-0.17	-0.07	0.01	inactive
12	ZMIZ1-AS1 (GeneID 283050)	1	0.62		0.5	0.73	inactive
13	LOC388617 (retired record) (GeneID 388617)	1	0.36	0.51	0.24	0.34	inactive
14	APCDD1L (GeneID 164284)	1	-0.61	-0.63	-0.65	-0.54	inactive
15	KATNB1 (GeneID 10300)	1	-0.87	-0.81	-0.95	-0.85	inactive
16	SEMA6D (GeneID 80031)	1	0	-0.34	0.28	0.06	inactive
17	SNAP29 (GeneID 9342)	1	-0.62	-0.64	-0.63	-0.58	inactive
18	TMED10 (GeneID 10972)	1	-0.78	-0.45	-0.98	-0.91	inactive
19	MAP10 (GeneID 54627)	1	-0.33	-0.75	-0.39	0.15	inactive
20	MAGEC2 (GeneID 51438)	1	-0.66	-0.21	-1.12	-0.64	inactive
21	ING4 (GeneID 51147)	1	-0.38	0.03	-0.93	-0.23	inactive
22	LOC400723 (retired record) (GeneID 400723)	1	0.06	0.13	0.12	-0.08	inactive
23	ANK2 (GeneID 287)	1	-0.19	-0.24	-0.13	-0.19	inactive
24	SP7 (GeneID 121340)	1	-2.94	-2.8	-3.15	-2.86	inactive
25	RWDD1 (GeneID 51389)	1	0.08	0.12	-0.09	0.2	inactive
26	WTIP (GeneID 126374)	1	-0.69	-0.87	-0.44	-0.77	inactive
27	CALCR (GeneID 799)	1	-0.84	-0.57	-0.99	-0.97	inactive
28	LRP4 (GeneID 4038)	1	0.05	-0.01	0.16	0.02	inactive
29	TLE4 (GeneID 7091)	1	1.24	0.99	1.54	1.18	inactive
30	RRP36 (GeneID 88745)	1	0.05	-0.25	0.4	0.01	inactive
31	AIFM3 (GeneID 150209)	1	-0.17	0.55	-0.51	-0.55	inactive
32	RASSF5 (GeneID 83593)	1	-0.49	-1.19	-0.22	-0.07	inactive
33	RPL27A (GeneID 6157)	1	-2.05	-1.99	-2.14	-2.03	inactive
34	LINC01312 (GeneID 154089)	1	0.69	0.78	0.36	0.94	inactive
35	ELFN2 (GeneID 114794)	1	-1.83	-1.65	-1.95	-1.89	inactive
36	LOC401478 (GeneID 401478)	1	0.53	0.6	0.51	0.48	inactive
37	SSTR1 (GeneID 6751)	1	-0.02	-0.03	0.1	-0.12	inactive
38	HINT3 (GeneID 135114)	1	0.04	-0.59	0.27	0.44	inactive
39	SEMA3A (GeneID 10371)	1	-0.52	-0.44	-0.51	-0.59	inactive

Sorted by “z-score, replicate B” (ascending): 4 of the entries above.
gene	reagent no.	mean z-score	z-score, replicate A	z-score, replicate B	z-score, replicate C	Call
SCGB1A1 (GeneID 7356)	1	-0.93	-0.83	-0.95	-1.03	inactive
FKBP9 (GeneID 11328)	1	-1.2	-1.58	-0.88	-1.15	inactive
ACTN2 (GeneID 88)	1	-0.46	-0.79	-0.24	-0.36	inactive
LOC401353 (retired record) (GeneID 401353)	2	0.17	0.21	0.13	0.16	inactive
